Patent publication US12173029B2, “Antiviral prodrugs, pharmaceutical formulations, and methods” (priority 2020, dated 2024)

What was measured:
Format in all cases: cell-based
[1] = system: SARS-CoV-2 isolate USA-WA1/2020; assay: Example 7 SARS-CoV-2 infection in Vero E6 cells (qRT-PCR); settings: Selectivity index CC50/EC50, Vero E6 cells
[2] = system: SARS-CoV-2 isolate USA-WA1/2020; assay: Example 7 SARS-CoV-2 infection in Caco-2 cells (qRT-PCR); settings: Selectivity index CC50/EC50, Caco-2 cells
[3] = system: SARS-CoV-2 isolate USA-WA1/2020; assay: Example 7 SARS-CoV-2 infection in PSC-human lung cells (qRT-PCR); settings: Selectivity index CC50/EC50, PSC-human lung cells
[4] = system: SARS-CoV-2 isolate USA-WA1/2020; assay: Example 3 SARS-CoV-2 infection in Vero E6 cells (qRT-PCR Spike RNA); settings: Selectivity index, CC50/EC50, Vero E6 cells
[5] = system: SARS-CoV-2 isolate USA-WA1/2020; assay: Example 7 SARS-CoV-2 infection in Calu-3 cells (qRT-PCR); settings: Selectivity index CC50/EC50, Calu-3 cells
[6] = system: USA WA-01 strain of SARS CoV-2; assay: Example 2 anti-coronavirus activity in Vero E6 cells (qPCR spike RNA); settings: CC50/EC50, Vero E6 cells
Description: Ten thousand Vero E6 cells were seeded in 100 microliters of culture medium in 96 well plates. The following day serial two-fold dilutions of antiviral compounds or the DMSO-containing vehicle were added to each well. The USA WA-01 strain of SARS CoV-2 was added to each well at a multiplicity of infection of 0.1 thirty minutes later. Cells were incubated for 48 hours, washed twice in PBS and lysed with TRIzol. RNA was extracted using Directzol micro RNA columns. RNA was made into cDNA and assayed for the SARS CoV-2 spike protein and for a housekeeping gene (RPLPO) RNA by qPCR. Data represents the average of duplicate wells. Cellular cytotoxicity was also measured in VERO E6 cells. […] Cytotoxicity (CC50) was assessed using a commercially available MTT assay.

[7] = system: SARS-CoV-2 isolate USA-WA1/2020; assay: Example 7 SARS-CoV-2 infection in Huh7.5 cells (qRT-PCR); settings: Selectivity index CC50/EC50, Huh7.5 cells

| SMILES | Selectivity [1] | Selectivity [2] | Selectivity [3] | Selectivity [4] | Selectivity [5] | Selectivity Index [6] | Selectivity [7] |
| --- | --- | --- | --- | --- | --- | --- | --- |
| CCCCCCCCCCCCCCCCCCOCCOP(=O)(O)OC[C@H]1O[C@@](C#N)(c2ccc3c(N)ncnn23)[C@H](O)[C@@H]1O [Compound 4c, 2-(Octadecyloxy)ethyl-phospho-RVn] | >333 | >129 | >454 | >212 | 290 | >143 | >526 |
| CCCCCCCCCCCCCCCCOCCCOP(=O)(O)OC[C@H]1O[C@@](C#N)(c2ccc3c(N)ncnn23)[C@H](O)[C@@H]1O [Compound 4b, 3-(Hexadecyloxy)propyl-phospho-RVn] | >158 | – | – | 52 | – | 25.0 | >526 |
